Anti-infective test results gathered from many reports (values: NIAID ChemDB through PubChem).

Common to all: tests in culture; organism: Herpes simplex virus 1; cells: HEL; read by: cytopathic effect; read-out: EC50

ECn: concentration that inhibits the pathogen or its effect by n%. Neighbouring rows are from separate reports. Blank or dashed fields: not listed here.

structure,strain,mutations,result
O=c1[nH]c(=O)n([C@H]2C[C@H](O)[C@@H](CO)O2)cc1/C=C/Br,HU-5,,0.023 µM
CC(C)NS(=O)(=O)c1ccccc1C(=O)NNC(=O)c1ccc(Cl)cc1,KOS,TK-deficient acyclovir-resistant,>100 µM
CCCCCCCC/C=C/CCCCCCCC(=O)O,KOS,,>100 µM
Cc1cn([C@H]2CC[C@@H](OCC(=O)O)C2)c(=O)[nH]c1=O,KOS,TK-deficient acyclovir-resistant,>250 µM
Cc1c(-c2ccc(F)cc2)[nH]c2nc3c(ncn3COCCO)c(=O)n12,TK-,,>80 µg/mL
Cc1ccc(S(=O)(=O)NNC(=O)c2ccccc2S(=O)(=O)NC(C)C)cc1,KOS,,>100 µM
O=C1CSc2nnc(-c3cn(-c4ccccc4)nc3-c3ccccc3)n2N1,KOS (TK-),,>16 µg/mL
COc1ccc(-c2[nH]c3nc4c(ncn4COCCO)c(=O)n3c2C)cc1,F,,0.384 µg/mL
C/C(=N/Nc1nc(-c2ccc(Br)cc2)cs1)c1ccc(NC(=O)CN2C(=O)c3ccccc3S2(=O)=O)cc1,KOS,,>20 µM
O=C(Nn1c(-c2cn(-c3ccccc3)nc2-c2ccccc2)n[nH]c1=S)c1ccccc1,KOS,,>16 µg/mL
CCCCCCCC/C=C/CCCCCCCC(=O)OCC(CO)OCn1cnc2c(=O)[nH]c(N)nc21,KOS,,0.001 µM
Cc1cn([C@@H]2C[C@H](OC(C(=O)O)P(=O)(O)O)[C@@H](O)[C@H]2O)c(=O)[nH]c1=O,KOS,TK-deficient acyclovir-resistant,>250 µM
CC(C)NS(=O)(=O)c1ccccc1C(=O)N/N=C/c1ccccc1,KOS,TK-deficient acyclovir-resistant,>100 µM
Cc1c(-c2ccc(C(F)(F)F)cc2)[nH]c2nc3c(ncn3COCCO)c(=O)n12,McIntyre,,16 µg/mL
C/C(=N/Nc1nc(-c2ccc(C)cc2)cs1)c1ccc(NC(=O)CN2C(=O)c3ccccc3S2(=O)=O)cc1,KOS,TK-deficient acyclovir-resistant,20 µM
c1ccc(-c2nn3c(-c4cn(-c5ccccc5)nc4-c4ccccc4)nnc3s2)cc1,KOS (TK-),,>3.2 µg/mL
O=c1c2ncn(COCCO)c2nc2[nH]c(-c3ccc(C(F)(F)F)cc3)cn12,McIntyre,,>16 µg/mL
Cc1nn2c(-c3cn(-c4ccccc4)nc3-c3ccccc3)nnc2s1,KOS,,>16 µg/mL
COc1ccc(/C=N/NC(=O)c2ccccc2S(=O)(=O)NC(C)C)cc1,KOS,TK-deficient acyclovir-resistant,>100 µM
CC(=O)Nn1c(-c2cn(-c3ccccc3)nc2-c2ccccc2)n[nH]c1=S,KOS (TK-),,>80 µg/mL
CC(C)NS(=O)(=O)c1ccccc1-c1n[nH]c(=S)o1,KOS,TK-deficient acyclovir-resistant,>100 µM

The last 3 rows once more:

structure	strain	mutations	result
COc1ccc(/C=N/NC(=O)c2ccccc2S(=O)(=O)NC(C)C)cc1	KOS	TK-deficient acyclovir-resistant	>100 µM
CC(=O)Nn1c(-c2cn(-c3ccccc3)nc2-c2ccccc2)n[nH]c1=S	KOS (TK-)		>80 µg/mL
CC(C)NS(=O)(=O)c1ccccc1-c1n[nH]c(=S)o1	KOS	TK-deficient acyclovir-resistant	>100 µM